Replication capacity of HIV-1 mutants, Vpu

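Seven fragments of pNL4-3 were mutated by error-prone PCR, and each virus pool was passaged in CEM T cells. The RC index is the frequency of a change after passage round 2 divided by its frequency in the plasmid library.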

Protein: Vpu of HIV-1 NL4-3, numbered from its first residue. The source prints no sequence; the chain below is taken from UniProt P05923, a closely related isolate, with 3 of its residues set to the source's, and fits the source at the 74 positions it covers.
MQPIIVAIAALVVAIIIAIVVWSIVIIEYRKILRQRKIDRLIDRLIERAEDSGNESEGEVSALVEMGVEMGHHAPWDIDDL
"Other frame" gives the effect on an overlapping gene as the source lists it; other overlaps (genes, RNA elements) are not shown.

RC index: lower means poorer replication; rough cut-offs are 0.1 (lethal) and 0.2 (tolerated).
Substitutions are written as wild-type residue, site number, new residue.

For V12L (base G6094C) the result was 0.0724. With I38T (base T6173C) the assay gave 0.0840. G53D (base G6218A) read 0.199. With D39Y (base G6175T) the assay gave 0.0593. I16M (base A6108G) read 0.0895. With V13I (base G6097A) the assay gave 0.345. V25E (base T6134A) read 3.21. A10G (base C6089G) gave 0.138.

For K37R (base A6170G) the result was 0.0405. Q2H (base A6066T) read 0.0667. I32T (base T6155C) read 0.0556. N54D (base A6220G) gave 0.0593. I5M (base A6075G) read 0.0515. I19M (base A6117G) gave 0.0944. V68L (base G6262T, other frame Env silent) gave 0.0478. R48G (base A6202G) gave 0.185.

P75S (base C6283T, other frame Env silent) gave 0.0867. A7V (base C6080T) read 0.165. For I8L (base A6082T) the result was 0.703. Y29C (base A6146G) read 0.0359. K31R (base A6152G) read 0.0552. For D77Y (base G6289T, other frame Env silent) the result was 0.885. R30S (base G6150T) gave 0.478. For S23F (base C6128T) the result was 0.770.

I16V (base A6106G) read 0.0973. With I8K (base T6083A) the assay gave 0.0710. S61P (base T6241C, other frame Env silent) read 0.0777. Q35H (base A6165T) read 0.0497. W22L (base G6125T) gave 0.206. With D43V (base A6188T) the assay gave 0.607. E50D (base A6210T) gave 0.0475. A14T (base G6100A) gave 0.175.

For V6L (base G6076C) the result was 0.0716. Q35L (base A6164T) read 0.0942. R36G (base A6166G) gave 0.190. I19L (base A6115T) read 0.0396. L33S (base T6158C) gave 0.0659. For I42N (base T6185A) the result was 0.0820. I38V (base A6172G) gave 0.0308. For I17K (base T6110A) the result was 0.208.

A18S (base G6112T) gave 0.164. With E28D (base A6144T) the assay gave 0.0363. With L63P (base T6248C, other frame Env silent) the assay gave 0.103. D51V (base A6212T) read 0.120. With I32L (base A6154T) the assay gave 4.84. With R34S (base A6162C) the assay gave 0.102. With I27K (base T6140A) the assay gave 0.134. S52R (base T6216A) read 0.0539.

V12A (base T6095C) gave 2.06. For I8V (base A6082G) the result was 0.0190. For W22C (base G6126C) the result was 0.0371. I5T (base T6074C) gave 0.0918. With V12L (base G6094T) the assay gave 0.183.

A selection of 5 entries from above:

| substitution | base | other frame | RC index |
|---|---|---|---|
| S23F | C6128T | none | 0.770 |
| A7V | C6080T | none | 0.165 |
| S61P | T6241C | Env silent | 0.0777 |
| R48G | A6202G | none | 0.185 |
| E50D | A6210T | none | 0.0475 |

Nucleotide positions follow pNL4-3.
The authors read an index above 1 as above wild type (1.9% of all changes in the genome).
Since each clone held several changes (about five per kb), neutral changes can read low.

Source: Al-Mawsawi et al. 2014 (doi:10.1186/s12977-014-0124-6), supplementary data.